Patent US6624288B1 (priority 1997, dated 2003)

Columns and labels:
[1] = system: fish (Gambusia affinis); assay: Injection bioassay in fish; conditions: 1 nmole per 100 mg body weight
[2] = system: blowfly (Sarcophaga) larvae; assay: Injection bioassay in blowfly larvae; conditions: 1 nmole per 100 mg body weight

Question: How did the “toxic or other effects upon injection in Gambusia fish” value [1] turn out when `CC(C)C[C@H](NC(=O)[C@H](CC(C(=O)O)C(=O)O)NC(=O)[C@@H]1CSSC[C@@H]2NC(=O)[C@H](CC(C(=O)O)C(=O)O)NC(=O)[C@H](CO)NC(=O)[C@H](CC(N)=O)NC(=O)[C@H](C(C)C)NC(=O)[C@H]([C@@H](C)O)NC(=O)[C@@H]3CSSC[C@H](NC(=O)[C@H](CO)NC(=O)[C@H](CC(N)=O)NC(=O)[C@H](CO)NC(=O)[C@H](CSSC[C@H](NC(=O)[C@@H](N)CC(=O)O)C(=O)N[C@@H]([C@@H](C)O)C(=O)N[C@@H](CO)C(=O)N[C@@H](Cc4c[nH]c5ccccc45)C(=O)N[C@@H](Cc4ccccc4)C(=O)NCC(=O)N[C@@H](CCCNC(=N)N)C(=O)N3)NC2=O)C(=O)N[C@@H](CC(=O)O)C(=O)N[C@@H](CCC(N)=O)C(=O)N[C@@H]([C@@H](C)O)C(=O)N[C@@H](Cc2ccc(O)cc2)C(=O)N1)C(=O)N[C@@H](Cc1ccc(O)cc1)C(=O)N[C@@H](C)C(=O)N[C@@H](Cc1ccccc1)C(=O)N1C[C@H](O)C[C@H]1C(=O)N[C@@H](CO)C(=O)O` was run?
Answer: No toxic or other effects

Question: What about the “toxic or other effects upon injection in blowfly (Sarcophaga) larvae” value [2] of the same molecule?
Answer: No toxic or other effects
